Usually MBC stands for the smallest concentration meeting the test's criterion for killing. A high value points to less potent killing.

Structures are written as SMILES.

Format in all cases: functional
For test [1], the system named is Escherichia coli. Put plainly: Bactericidal activity against Escherichia coli F-50 incubated for 4 hrs.
In test [2] the test system is Bacillus cereus. Put plainly: Bactericidal activity against Bacillus cereus 8035 incubated for 4 hrs.
The subject of test [3] is Staphylococcus aureus. Put plainly: Bactericidal activity against Staphylococcus aureus 209p incubated for 4 hrs.
The test system of test [4] is Pseudomonas aeruginosa. Put plainly: Bactericidal activity against Pseudomonas aeruginosa 9027 incubated for 4 hrs.

In the case of `CCn1cc(C(=O)O)c(=O)c2cc(F)c(N3CCNCC3)cc21.O=[N+]([O-])c1c(Cl)c([N+](=O)[O-])c2no[n+]([O-])c2c1O`, the minimal bactericidal concentration (MBC) in test [1] is 62.5 µg/mL; in test [2], 31.3 µg/mL; in test [3], 15.6 µg/mL; in test [4] it was 62.5 µg/mL.

As to `CCn1cc(C(=O)O)c(=O)c2cc(F)c(N3CCNCC3)cc21.O=[N+]([O-])c1cc([N+](=O)[O-])c2no[n+]([O-])c2c1O`, the MBC in test [1], in test [2], in test [3] and in test [4] was 7.8 µg/mL in each case.

Take `O=C(O)c1cn(C2CC2)c2cc(N3CCNCC3)c(F)cc2c1=O.O=[N+]([O-])c1c(Cl)c([N+](=O)[O-])c2no[n+]([O-])c2c1O`: the MBC worked out at 3.1 µg/mL in test [1], 3.1 µg/mL in test [2], 1.5 µg/mL in test [3] and 3.1 µg/mL in test [4].

In the case of `CC1CN(c2c(F)c(N)c3c(=O)c(C(=O)O)cn(C4CC4)c3c2F)CC(C)N1.O=[N+]([O-])c1cc([N+](=O)[O-])c2no[n+]([O-])c2c1O` (configuration not stated), the MBC is 3.1 µg/mL in test [1], 3.1 µg/mL in test [2], 1.9 µg/mL in test [3] and 6.3 µg/mL in test [4].

As for `O=C(O)c1cn(C2CC2)c2cc(N3CCNCC3)c(F)cc2c1=O.O=[N+]([O-])c1cc([N+](=O)[O-])c2no[n+]([O-])c2c1O`, the MBC is 3.1 µg/mL in test [1], 1.9 µg/mL in test [2], 1.9 µg/mL in test [3] and 3.1 µg/mL in test [4].

For the molecule `CCn1cc(C(=O)O)c(=O)c2cc(F)c(N3CCNC(C)C3)c(F)c21.O=[N+]([O-])c1c(Cl)c([N+](=O)[O-])c2no[n+]([O-])c2c1O` (configuration not stated), the MBC was 62.5 µg/mL in test [1], 3.1 µg/mL in test [2], 7.8 µg/mL in test [3] and 62.5 µg/mL in test [4].

For `CCn1cc(C(=O)O)c(=O)c2cc(F)c(N3CCNC(C)C3)c(F)c21.O=[N+]([O-])c1cc([N+](=O)[O-])c2no[n+]([O-])c2c1O` (configuration not stated), the MBC in test [1] worked out at 62.5 µg/mL; in test [2] it was 3.9 µg/mL; in test [3], 3.9 µg/mL; in test [4] it was 62.5 µg/mL.

As for `CC1CN(c2c(F)c(N)c3c(=O)c(C(=O)O)cn(C4CC4)c3c2F)CC(C)N1.O=[N+]([O-])c1c(Cl)c([N+](=O)[O-])c2no[n+]([O-])c2c1O` (configuration not stated), the MBC turned out to be 3.1 µg/mL in test [1], 0.78 µg/mL in test [2], 0.39 µg/mL in test [3] and 6.3 µg/mL in test [4].

For the origin of these results see ChEMBL document CHEMBL3797086, “Synthesis and biological evaluation of novel structural hybrids of benzofuroxan derivatives and fluoroquinolones” (Eur J Med Chem, 2016).
